The record followed here is patent US20090281028A1.

Assay [1] concerns the target T1, human Kv1.3 voltage-gated potassium channel (human), P22001. Kind of assay: IonWorks Quattro planar patch clamp. Conditions: chains peptide; modification not given.
Assay [2] addresses T2, human Kv1.1 voltage-gated potassium channel (human), Q09470.
T2 chain: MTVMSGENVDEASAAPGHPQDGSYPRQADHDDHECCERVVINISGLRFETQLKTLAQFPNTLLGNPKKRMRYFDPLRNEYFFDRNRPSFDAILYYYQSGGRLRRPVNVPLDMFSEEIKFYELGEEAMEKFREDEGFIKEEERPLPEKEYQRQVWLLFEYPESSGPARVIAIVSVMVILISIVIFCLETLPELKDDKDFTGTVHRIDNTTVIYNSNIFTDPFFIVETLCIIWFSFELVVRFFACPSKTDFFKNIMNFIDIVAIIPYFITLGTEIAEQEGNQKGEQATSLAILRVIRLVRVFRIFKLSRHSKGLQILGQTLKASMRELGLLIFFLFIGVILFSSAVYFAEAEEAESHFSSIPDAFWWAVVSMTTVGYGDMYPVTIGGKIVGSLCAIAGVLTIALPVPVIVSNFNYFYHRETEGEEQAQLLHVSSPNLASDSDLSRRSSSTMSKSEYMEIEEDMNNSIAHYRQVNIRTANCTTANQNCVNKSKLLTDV
Kind of assay: IonWorks Quattro planar patch clamp. Conditions: chains peptide; modification not given. (The patch-clamp technique gives a direct electrical read-out from membranes.)

The target of assay [3] is T1, human Kv1.3 voltage-gated potassium …. Briefly: cell-based or functional assay.
Assay [4] has as its target T2, human Kv1.1 voltage-gated potassium …. Briefly: cell-based or functional assay.
Assay [5] concerns the target T1, human Kv1.3 voltage-gated potassium …. Briefly: PatchXpress electrophysiology; PX. The following applies: chains peptide; modification not given.
The target is the same in assay [6]. Briefly: PatchXpress electrophysiology; PX, IC50 Transit. Conditions: chains peptide; modification not given.
Assay [7] addresses T2, human Kv1.1 voltage-gated potassium …. Briefly: PatchXpress electrophysiology; PX, IC50 Transit. The following applies: chains peptide; modification not given.

On to GVIINVKCKISRQCLEPCKKAGMRFGKCANGKCHCTPK (modifications not checked) [OSK1 peptide analog M29A], for which the IC50 (in general, the concentration needed to halve the response being measured) in assay [1] amounted to 74 pM; in assay [2], 2620 pM. The same molecule gave a Kv1.3 (IC50, pM); whole cell patch clamp ePhys in assay [3] of 33 pM. In assay [3], this molecule showed a Kv1.3 Selectivity (=Kv1.1/Kv.3 IC50) of 105 fold. For the same molecule, the Kv1.1 (IC50, pM); whole cell patch clamp ePhys in assay [4] came to 3470 pM.

As to GVIINVKCKISAQCLEPCKKAGMRFGKCMNGKCHCTPK [OSK1 peptide analog R12A], the IC50 in assay [5] worked out at 8 pM; in assay [6] it was 8 pM; in assay [7] it was 644 pM. For the same molecule, in assay [3], the Kv1.3 (IC50, pM); whole cell patch clamp ePhys came to 25 pM. The molecule also yielded a Kv1.3 Selectivity (=Kv1.1/Kv.3 IC50) in assay [3] of 17 fold. The molecule also registered a Kv1.1 (IC50, pM); whole cell patch clamp ePhys in assay [4] of 440 pM.

In assay [3], GVIINVKCKISRQCLEPCKKAGMRFGKCMNGKCHCTEK (modifications not checked) [OSK1 peptide analog P37E] showed a Kv1.3 (IC50, pM); whole cell patch clamp ePhys of 241 pM and a Kv1.3 Selectivity (=Kv1.1/Kv.3 IC50) of 65 fold. In addition, in assay [4], the Kv1.1 (IC50, pM); whole cell patch clamp ePhys came to 15700 pM.

In assay [3], GVIINVKCKISRQCLEPCKKAGMRFGKCRNGKCHCTPK (modifications not checked) [OSK1 peptide analog M29R] had a Kv1.3 (IC50, pM); whole cell patch clamp ePhys of 760 pM and a Kv1.3 Selectivity (=Kv1.1/Kv.3 IC50) of 30 fold. Besides, the Kv1.1 (IC50, pM); whole cell patch clamp ePhys in assay [4] is 23000 pM.

In assay [3], GVIINVKCKISRQCLEPCKKAGMRFGKCMNGKCACTPK (modifications not checked) [OSK1 peptide analog H34A] had a Kv1.3 (IC50, pM); whole cell patch clamp ePhys of 16 pM and a Kv1.3 Selectivity (=Kv1.1/Kv.3 IC50) of 797 fold. This molecule gave a Kv1.1 (IC50, pM); whole cell patch clamp ePhys in assay [4] of 12800 pM.

In assay [3], GVIINVKCKISRQCLEPCKKAGMRFGKCMNGKCECTPK (modifications not checked) [OSK1 peptide analog H34E] displayed a Kv1.3 (IC50, pM); whole cell patch clamp ePhys of 1320 pM and a Kv1.3 Selectivity (=Kv1.1/Kv.3 IC50) of 30 fold. This molecule also came in with a Kv1.1 (IC50, pM); whole cell patch clamp ePhys in assay [4] of 39400 pM.

In assay [3], GVIINVKCKIRRQCLEPCKKAGMRFGKCMNGKCHCTPK (modifications not checked) [OSK1 peptide analog S11R] yielded a Kv1.3 (IC50, pM); whole cell patch clamp ePhys of 40 pM and a Kv1.3 Selectivity (=Kv1.1/Kv.3 IC50) of 228 fold. Moreover, the Kv1.1 (IC50, pM); whole cell patch clamp ePhys in assay [4] came out at 9130 pM.

GVIINVKCKISRQCLEPCKKAGMRFGKCANGKCHCTPK (modifications not checked) [20k PEG-OSK1[Ala29]]: in assay [3], the WB/IFNg (IC50, nM); human whole blood stood at 5.58 nM and the WB/IL-2 (IC50, nM); human whole blood turned out to be 5.76 nM.

In assay [3], GVIINVKCKISRQCEEPCKKAGMRFGKCMNGKCHCTPK (modifications not checked) [OSK1 peptide analog L15E] showed a Kv1.3 (IC50, pM); whole cell patch clamp ePhys of 190 pM and a Kv1.3 Selectivity (=Kv1.1/Kv.3 IC50) of 342 fold. In addition, the Kv1.1 (IC50, pM); whole cell patch clamp ePhys in assay [4] came out at 65000 pM.

Turning to GVIINVKCKISAQCLEPCKKAGMRFGKCMNGKCHCTPK (modifications not checked) [20k PEG-OSK1[Ala12]], in assay [3], the WB/IFNg (IC50, nM); human whole blood is 0.137 nM and the WB/IL-2 (IC50, nM); human whole blood stood at 0.27 nM.

In assay [3], GVIINVKCKISRQCLEPCKKAGMRFGKCMAGKCHCTPK (modifications not checked) [OSK1 peptide analog N30A] yielded a Kv1.3 (IC50, pM); whole cell patch clamp ePhys of 766 pM and a Kv1.3 Selectivity (=Kv1.1/Kv.3 IC50) of 14 fold. The same molecule displayed a Kv1.1 (IC50, pM); whole cell patch clamp ePhys in assay [4] of 10200 pM.

In the case of GVIINVKCKISRQCLEPCKKAGMRFGKCMNGKCHCEPK (modifications not checked) [OSK1 peptide analog T36E], in assay [3], the Kv1.3 (IC50, pM); whole cell patch clamp ePhys was determined as 1920 pM and the Kv1.3 Selectivity (=Kv1.1/Kv.3 IC50) worked out at 44 fold. This molecule displayed a Kv1.1 (IC50, pM); whole cell patch clamp ePhys in assay [4] of 83900 pM.

As to GIINVKCKISAQCLKPCRDAGMRFGKCMNGKCACTPK (modifications not checked) [OSK1 peptide analog des1, V2G, R12A, E16K, K19R, K20D, H34A], the WB/IL-2 (IC50, nM); human whole blood in assay [3] turned out to be 1.5 nM.
